Values from PubChem BioAssay AID624099 (ICCB-Longwood, 2012)
Purpose: 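Host factors E2 relies on to silence an HPV18 LCR reporter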 (primary screen). System: human C33A cervical carcinoma cells (HPV-negative) stably expressing BPV1 E2 and an HPV18 LCR luciferase reporter. Reagent: siRNA pool against human genes, 40 nM. Duration: 72 h. Read-out: 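HPV18 LCR reporter light per well, converted to plate-wise z-scores that exclude control wells, and averaged over triplicate plates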. Direction: mean z-score and z-score: higher = stronger reporter signal, weaker E2 silencing. Active means: 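Hit if mean z-score reaches 2 and two or more of three replicate z-scores also reach 2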.
This is an unselected part of about 21,000 reagents tested. 497 of all reagents (2.4%) count as active. 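Higher z means weaker E2 silencing; only reporter increases were scored, and knock-downs that hurt cell survival may mask genuine repressor factors.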 A number with no mark means an inactive call. Reagent sequences are not shown.

With knock-down of MED8 [SID134313471], the screen gave mean z-score -2.37; z-score, replicate A = -2.34; z-score, replicate B = -2.53; z-score, replicate C = -2.25.
Knock-down of GRM2 [SID134311057] came out at: mean z-score -1.95; z-score, replicate A = -1.99; z-score, replicate B = -1.9; z-score, replicate C = -1.96.
Against CTSS [SID134311271] the deposit lists mean z-score 0.25; z-score, replicate A = -0.12; z-score, replicate B = 0.25; z-score, replicate C = 0.61.
KIAA0753 [SID134324863] showed mean z-score 0.3; z-score, replicate A = 0.5; z-score, replicate B = 0.11; z-score, replicate C = 0.3.
For EPS8L3 [SID134317163] the deposit lists mean z-score -0.8; z-score, replicate A = -0.76; z-score, replicate B = -0.96; z-score, replicate C = -0.7.
Against LOC388259 (retired record) [SID134328715], the values are mean z-score 0.28; z-score, replicate A = 0.52; z-score, replicate B = 0.28; z-score, replicate C = 0.04.
After knock-down of CDC6 [SID56478593], the screen gave mean z-score 0.58; z-score, replicate A = 0.12; z-score, replicate B = 0.61; z-score, replicate C = 1.
For FAM114A2 [SID134324658], the entry reads mean z-score -0.11; z-score, replicate A = -0.05; z-score, replicate B = -0.07; z-score, replicate C = -0.21.
With knock-down of ECE2 [SID134311285] the results were mean z-score 0.09; z-score, replicate A = 0.36; z-score, replicate B = 0.35; z-score, replicate C = -0.43.
After knock-down of ECE2 [SID134318946], the record shows mean z-score -0.93; z-score, replicate A = -0.74; z-score, replicate B = -1.17; z-score, replicate C = -0.87.
Knock-down of CD74 [SID134316929] came out at: mean z-score -0.26; z-score, replicate A = -0.27; z-score, replicate B = -0.37; z-score, replicate C = -0.14.
ELOVL1 [SID134314110] gave mean z-score -0.25; z-score, replicate A = -0.46; z-score, replicate B = -0.6; z-score, replicate C = 0.3.
With knock-down of ROS1 [SID56478551], the record shows mean z-score -0.46; z-score, replicate A = -0.68; z-score, replicate B = -0.21; z-score, replicate C = -0.49.
NRG4 [SID134319721] scored mean z-score 0.7; z-score, replicate A = 0.31; z-score, replicate B = 0.69; z-score, replicate C = 1.12.
After knock-down of SETD1B [SID134326714], the record shows mean z-score -0.44; z-score, replicate A = -0.66; z-score, replicate B = -0.42; z-score, replicate C = -0.25.
Against UBA2 [SID134310829], the values are mean z-score -0.83; z-score, replicate A = -0.54; z-score, replicate B = -1.14; z-score, replicate C = -0.81.
Against GRAMD1A [SID134318320], the values are mean z-score -0.13; z-score, replicate A = 0.39; z-score, replicate B = -0.06; z-score, replicate C = -0.71.
Silencing of H6PD [SID134310568] gave: mean z-score -1.02; z-score, replicate A = -1.08; z-score, replicate B = -1.07; z-score, replicate C = -0.91.
Against MGP [SID134314485] the deposit lists mean z-score -0.7; z-score, replicate A = -0.58; z-score, replicate B = -0.86; z-score, replicate C = -0.68.
TSPY1 [SID134316868] showed mean z-score 0.76; z-score, replicate A = 0.93; z-score, replicate B = 0.53; z-score, replicate C = 0.84.
AHSA1 [SID134323762] showed mean z-score -1.43; z-score, replicate A = -1.83; z-score, replicate B = -1.35; z-score, replicate C = -1.12.
